# Literature values, collected in article PMC4913920.
# Molecular target: HIV-1 capsid protein CA (Human immunodeficiency virus 1) (UniProt O93182)
substance,measurement,value
Cyclophilin A (from UniProt P62937),Kd,11.5 µM
